Anti-infective test results gathered from many reports (values: NIAID ChemDB through PubChem).

All rows: growth or infection tests; species: Varicella zoster virus; endpoint: EC50

Neighbouring rows are from separate reports.

smiles,cell line,method,strain,value
O=c1[nH]c(=O)n([C@H]2C[C@H](O)[C@@H](CO)O2)cc1/C=C/Cl,HEL,plaque count,OKA (TK+),0.024 µM
CCCc1cn([C@H]2C[C@H](O)[C@@H](CO)O2)c(=S)nc1N,MRC-5,plaque count,Kanno-Kohmura (TK-),>277.4 µM
CCCCc1cc2cnc(=O)[nH]c2o1,HEL,plaque count,OKA,213 µM
O=c1nc2oc(CCCCCCCCCBr)cc2cn1[C@H]1C[C@H](O)[C@@H](CO)O1,HEL,plaque count,YS,0.03 µM
CCCCCCCCCCc1cc2cn([C@H]3C[C@H](O)[C@@H](CO)O3)c(=O)nc2n1C,HEL,plaque count,07/1 (TK-),>50 µM
CC1(C)[C@@H](CCO)C[C@H]1n1cnc2c(N)ncnc21,HEL,plaque count,(TK+)/OKA,>20 µg/mL
CCCCCCCCCCc1cc2cn([C@H]3C[C@H](O)[C@@H](CO)O3)c(=O)nc2o1,HEL,plaque count,OKA,0.02 µM
OC[C@H]1O[C@H](c2cc(Br)c(F)cc2F)C[C@@H]1O,HEL,plaque count,(TK-)/YS/R,>200 µM
Cc1cn(C(CF)CCCO)c(=O)[nH]c1=O,HEL,cytopathic effect,OKA,>50 µg/mL
CCCCCCc1cc2cn([C@H]3C[C@H](O)[C@@H](CO)O3)c(=O)nc2[nH]1,HEL,plaque count,YS,>50 µM
Nc1nc2c(ncn2[C@@H]2CO[C@H](CO)[C@@H](O)C2)c(=O)[nH]1,-,plaque count,-,1–10 µM
CCCCCCC#Cc1cn(S(=O)(=O)c2ccc(C)cc2)c(=O)[nH]c1=O,HEL,plaque count,OKA,>16 µM
OC[C@H]1O[C@@H](c2cc(Br)c(F)cc2F)C[C@@H]1O,HEL,plaque count,TK+/YS,>200 µM
CCOc1ccc(-c2cc3cn([C@H]4C[C@H](O)[C@@H](CO)O4)c(=O)nc3o2)cc1,HEL,cytopathic effect,OKA,<0.5 µM
O=c1[nH]c(=O)n([C@H]2C[C@H](O)[C@@H](CO)O2)cc1/C=C/Br,HEL,plaque count,(TK-)07/1,>60 µM
CCCCCCCCCCCCc1cc2cn([C@H]3C[C@H](O)[C@@H](CO)O3)c(=O)nc2[nH]1,HEL,plaque count,YS,14 µM
CC1(C)[C@@H](CCO)C[C@H]1n1nnc2c(N)nc(N)nc21,HEL,plaque count,(TK-)07/1,>20 µg/mL
Nc1nc2c(ncn2C[C@]2(CO)C[C@H]2CO)c(=O)[nH]1,HEL,plaque count,5 isolates,0.77 µg/mL
Nc1nc2c(ncn2CCC(CO)CO)c(=O)[nH]1,HEL,plaque count,07/1 (TK-),8 µg/mL
OC[C@H]1O[C@@H](c2cc(C(F)(F)F)c(F)cc2F)C[C@@H]1O,HEL,plaque count,(TK-)/YS/R,>200 µM
CC(O)c1cn([C@@H]2O[C@H](CO)[C@@H](O)[C@@H]2O)c(=S)nc1N,MRC-5,plaque count,Kanno-Kohmura (TK-),>244.8 µM
Cc1cc([C@H]2C[C@H](O)[C@@H](CO)O2)c(F)cc1F,HEL,plaque count,(TK-)07/1,>200 µM
Nc1nc(=O)n([C@H]2C[C@H](O)[C@@H](CO)O2)cc1/C=C/Cl,HEL,plaque count,OKA,0.02 µg/mL
Cn1cc(C(=O)NCc2ccc(Cl)cc2)c(=O)c2cc(CN3CCOCC3)ccc21,HFF,plaque count,DE varicella isolate,0.3 µM
CCCCCCCCCCCCc1cc2cn([C@H]3C[C@H](O)[C@@H](CO)O3)c(=O)nc2[nH]1,HEL,plaque count,YS,14 µM
O=C(NCc1ccc(Cl)cc1)c1c[nH]c2ccc(CCCO)cc2c1=O,-,plaque count,CAR,0.1 µM
NC1=NS(=O)(=O)N(Cc2ccccc2)c2nc[nH]c21,HEL,plaque count,YS/R (TK-),>50 µg/mL
CCCCCCCCCCC#Cc1cn(S(=O)(=O)c2ccc(C)cc2)c(=O)[nH]c1=O,HEL,plaque count,OKA,>16 µM
COc1ccc(-c2cc3cn([C@H]4C[C@H](O)[C@@H](CO)O4)c(=O)nc3o2)cc1,HEL,cytopathic effect,OKA,<0.5 µM
CCCCCC#Cc1cn(S(=O)(=O)c2ccc(C)cc2)c(=O)[nH]c1=O,HEL,plaque count,07/1,>16 µM
O=c1nc2oc(-c3ccc(Br)cc3)cc2cn1[C@H]1C[C@H](O)[C@@H](CO)O1,HEL,cytopathic effect,OKA,0.1 µM
Cc1cc([C@@H]2C[C@H](O)[C@@H](CO)O2)c(F)cc1Cl,HEL,plaque count,(TK+)/OKA,>200 µM
CCCCCCCCCCc1cc2cn([C@H]3C[C@H](O)[C@@H](CO)O3)c(=O)nc2n1CC,HEL,plaque count,07/1 (TK-),>5 µM
Cc1cc([C@H]2C[C@H](O)[C@@H](CO)O2)c(F)cc1Cl,HEL,plaque count,(TK-)/YS/R,>200 µM
Nc1ccn(CCCC(O)CF)c(=O)n1,HEL,cytopathic effect,OKA,>50 µg/mL
CC1(C)[C@@H](CCO)C[C@H]1n1nnc2c(=O)[nH]c(N)nc21,HEL,plaque count,(TK+)/OKA,>50 µg/mL
NC1=NS(=O)(=O)N(Cc2ccccc2)c2nc(-c3ccc(Cl)cc3)[nH]c21,HEL,plaque count,OKA,>5 µg/mL
CCCCCCCCCCCCc1cc2cn([C@H]3C[C@H](O)[C@@H](CO)O3)c(=O)nc2s1,HEL,plaque count,OKA,0.2 µM
CC1(C)[C@@H](CCO)C[C@H]1n1cnc2c(=O)[nH]c(N)nc21,HEL,plaque count,(TK+)/OKA,>50 µg/mL
Nc1ncnc2c1ncn2C[C@H](O)CO,HEL,cytopathic effect,YS/R (TK-),200 µg/mL
Nc1ncnc2c1ncn2CCCC(O)CF,HEL,cytopathic effect,YS/R (TK-),>50 µg/mL
CCCCCCCCc1cc2cn([C@H]3C[C@H](O)[C@@H](CO)O3)c(=O)nc2[nH]1,HEL,plaque count,07/1 (TK-),>20 µM
CCCCCCCCCCC#Cc1c[nH]c(=O)[nH]c1=O,HEL,plaque count,07/1,>16 µM
CCc1cn([C@@H]2O[C@H](CO)[C@@H](O)[C@@H]2O)c(=S)[nH]c1=O,MRC-5,plaque count,HOSEN (TK+),>264.9 µM
Cc1cc([C@@H]2C[C@H](O)[C@@H](CO)O2)c(Cl)cc1F,HEL,plaque count,(TK+)/OKA,>200 µM
CCCCOc1ccc(-c2cc3cn([C@H]4C[C@H](O)[C@@H](CO)O4)c(=O)nc3o2)cc1,HEL,cytopathic effect,YS,<0.5 µM
Nc1nc(=O)n([C@H]2C[C@H](O)[C@@H](CO)O2)cc1/C=C\Cl,HEL,plaque count,YS,0.3 µg/mL
Nc1nc2c(ncn2C[C@]2(CO)C[C@H]2CO)c(=O)[nH]1,HEL,plaque count,07/1 (TK-),3 µg/mL
Cc1cn([C@@H]2O[C@H](CO)[C@H]2CO)c(=O)[nH]c1=O,HFF,plaque count,OKA,0.02 µg/mL
CC#Cc1cn([C@@H]2O[C@H](CO)[C@@H](O)[C@@H]2O)c(=O)[nH]c1=O,HEL,plaque count,07/1 (TK-),>177 µM
CCCCCCCCCCCCc1cc2cn([C@H]3C[C@H](O)[C@@H](CO)O3)c(=O)nc2o1,HEL,plaque count,07 (TK-),>50 µM
Nc1cc([C@H]2C[C@H](O)[C@@H](CO)O2)c(F)cc1F,HEL,plaque count,(TK-)/YS/R,>200 µM
O=c1[nH]c(=O)n([C@H]2C[C@H](O)[C@@H](CO)O2)cc1/C=C/Br,HEL,cytopathic effect,YS/R (TK-),>400 µg/mL
O=c1[nH]c(=O)n([C@H]2C[C@H](O)[C@@H](CO)O2)cc1-c1ccc(Br)s1,HEL,plaque count,07/1 (TK-),>103 µM
Nc1nc(=S)n([C@@H]2O[C@H](CO)[C@@H](O)[C@@H]2O)cc1/C=C/c1ccccc1,MRC-5,plaque count,CAQU (TK+),>235.4 µM
NC1=NC2C(C=CN2CC(CO)CCO)C(=O)N1,HEL,plaque count,YS (TK+),0.018 µM
O=c1nc2oc(CCCCCCCCCCl)cc2cn1[C@H]1C[C@H](O)[C@@H](CO)O1,HEL,plaque count,OKA,0.04 µM
O=c1[nH]c(=O)n([C@@H]2O[C@H](CO)[C@@H](O)[C@@H]2O)cc1/C=C/Br,HEL,plaque count,YS (TK+),0.000024 µM
CCCCCCCC#Cc1cn(S(=O)(=O)c2ccc(C)cc2)c(=O)[nH]c1=O,HEL,plaque count,07/1,>16 µM

Again, the opening 5 rows:

smiles,cell line,method,strain,value
O=c1[nH]c(=O)n([C@H]2C[C@H](O)[C@@H](CO)O2)cc1/C=C/Cl,HEL,plaque count,OKA (TK+),0.024 µM
CCCc1cn([C@H]2C[C@H](O)[C@@H](CO)O2)c(=S)nc1N,MRC-5,plaque count,Kanno-Kohmura (TK-),>277.4 µM
CCCCc1cc2cnc(=O)[nH]c2o1,HEL,plaque count,OKA,213 µM
O=c1nc2oc(CCCCCCCCCBr)cc2cn1[C@H]1C[C@H](O)[C@@H](CO)O1,HEL,plaque count,YS,0.03 µM
CCCCCCCCCCc1cc2cn([C@H]3C[C@H](O)[C@@H](CO)O3)c(=O)nc2n1C,HEL,plaque count,07/1 (TK-),>50 µM

Two numbers with a dash give a range or band. Blank or dashed fields: not listed here. ECn is the concentration giving n% inhibition of infection, replication or growth.